Test results taken from article PMC11237654 (Journal of Virology, 2024).

Assay: peptide synthesis
Settings: late stage modification step

Substance AAVALMOX↓SAHHYAYR has a step yield of over 99%.
